This is an account of results in US10399966B2, “Compounds for treatment of trypanosomes and neurological pathogens and uses thereof” (The University of North Carolina at Chapel Hill, priority 2016, dated 2019).

Bounds are passed on as bounds.

The subject of this data set is human hepatocytes HepG2. The experiment in a line: Cytotoxicity against HepG2 cells. The conditions noted are these: Selectivity index: EC50 (cell line)/EC50 (T. b. brucei).

Consider `O=C(Nc1ccc2sc(-c3ccccc3F)nc2c1)N1CCCC1` [Compound 32, 2-(2-Fluorophenyl)-5-(N-pyrrolidylamido)benzothiazole], for which the “HepG2 SI” value is on record as greater than 51.
The value for `O=C(Nc1ccc2sc(-c3ccccc3)nc2c1)c1cccs1` [Compound 18, 2-Phenyl-5-(2-thienylamido)benzothiazole] was greater than 57; that for `O=C(Nc1ccc2sc(-c3ccccc3F)nc2c1)N1CCCCC1` [Compound 33, 2-(2-Fluorophenyl)-5-(N-piperidylamido)benzothiazole] was greater than 53.
The value for `O=C(Nc1ccc2sc(-c3ccc(F)c(F)c3)nc2c1)N1CCC(F)(F)C1` [Compound 9, 2-(3,4-Difluorophenyl)-5-(3,3-difluoro-N-pyrrolidylamido)benzothiazole] was greater than 54.
